# What was measured:
# Settings in all cases: for Average log reduction: vs water control
# E. coli O157:H7 = test: Suspension tests, E. coli; format: cell-based
# Listeria monocytogenes = test: Suspension tests, Listeria; format: cell-based
# Salmonella = test: Suspension tests, Salmonella; format: cell-based, sv. Typhimurium
substance,measurement,setting,value
chlorine,Average (bacterial load),"E. coli O157:H7; 30 seconds at 4° C., Water 5.72 × 10^6",0.00
same,Average log reduction,E. coli O157:H7; 30 seconds at 4° C.,*
same,Average (bacterial load),"E. coli O157:H7; 30 seconds at 15° C., Water 5.96 × 10^6",0.00
same,Average log reduction,E. coli O157:H7; 30 seconds at 15° C.,*
same,Average (bacterial load),"E. coli O157:H7; 30 seconds at 40° C., Water 3.22 × 10^6",0.00
same,Average log reduction,E. coli O157:H7; 30 seconds at 40° C.,*
same,Average (bacterial load),"E. coli O157:H7; 90 seconds at 4° C., Water 3.96 × 10^6",0.00
same,Average log reduction,E. coli O157:H7; 90 seconds at 4° C.,*
same,Average (bacterial load),"E. coli O157:H7; 90 seconds at 15° C., Water 5.74 × 10^6",0.00
same,Average log reduction,E. coli O157:H7; 90 seconds at 15° C.,*
same,Average (bacterial load),"E. coli O157:H7; 90 seconds at 40° C., Water 3.14 × 10^6",0.00
same,Average log reduction,E. coli O157:H7; 90 seconds at 40° C.,*
same,Average (bacterial load),"Listeria monocytogenes; 30 seconds at 4° C., Water 4.96 × 10^5",0.00
same,Average log reduction,Listeria monocytogenes; 30 seconds at 4° C.,*
same,Average (bacterial load),"Listeria monocytogenes; 30 seconds at 15° C., Water 2.24 × 10^6",0.00
same,Average log reduction,Listeria monocytogenes; 30 seconds at 15° C.,*
same,Average (bacterial load),"Listeria monocytogenes; 30 seconds at 40° C., Water 2.32 × 10^6",0.00
same,Average log reduction,Listeria monocytogenes; 30 seconds at 40° C.,*
same,Average (bacterial load),"Listeria monocytogenes; 90 seconds at 4° C., Water 2.06 × 10^5",0.00
same,Average log reduction,Listeria monocytogenes; 90 seconds at 4° C.,*
same,Average (bacterial load),"Listeria monocytogenes; 90 seconds at 15° C., Water 7.14 × 10^4",2.00 × 10^0
same,Average log reduction,Listeria monocytogenes; 90 seconds at 15° C.,4.55
same,Average (bacterial load),"Listeria monocytogenes; 90 seconds at 40° C., Water 2.50 × 10^6",0.00
same,Average log reduction,Listeria monocytogenes; 90 seconds at 40° C.,*
same,Average (bacterial load),"Salmonella; 30 seconds at 4° C., Water 5.32 × 10^6",0.00
same,Average log reduction,Salmonella; 30 seconds at 4° C.,*
same,Average (bacterial load),"Salmonella; 30 seconds at 15° C., Water 2.70 × 10^6",0.00
same,Average log reduction,Salmonella; 30 seconds at 15° C.,*
same,Average (bacterial load),"Salmonella; 30 seconds at 40° C., Water 4.36 × 10^6",0.00
same,Average log reduction,Salmonella; 30 seconds at 40° C.,*
same,Average (bacterial load),"Salmonella; 90 seconds at 4° C., Water 1.57 × 10^6",0.00
same,Average log reduction,Salmonella; 90 seconds at 4° C.,*
same,Average (bacterial load),"Salmonella; 90 seconds at 15° C., Water 4.54 × 10^6",0.00
same,Average log reduction,Salmonella; 90 seconds at 15° C.,*
same,Average (bacterial load),"Salmonella; 90 seconds at 40° C., Water 7.42 × 10^6",0.00
same,Average log reduction,Salmonella; 90 seconds at 40° C.,*

# Source: US10993448B2, “Method for sanitizing fresh produce” (Dole Fresh Vegetables, Inc., priority 2014, dated 2021)
